Assay results as given in paper PMC12047801, “Disrupting the OTUD4-USP7 deubiquitinase complex to suppress herpesvirus replication: a novel antiviral strategy” (PLOS Pathogens, 2025).

Tested on: KSHV proteins RTA, ORF45, K8α, and ORF57 in SLK.iBAC-GFP cells
Assay: Viral protein levels by immunoblotting, SLK.iBAC-GFP cells
Settings: S2G Fig, 100 μM

SMILES: CC(=O)N[C@@H](Cc1ccc(O)cc1)C(=O)NCC(=O)N[C@@H](CCCNC(=N)N)C(=O)N[C@@H](CCCCN)C(=O)N[C@@H](CCCCN)C(=O)N[C@@H](CCCNC(=N)N)C(=O)N[C@@H](CCCNC(=N)N)C(=O)N[C@@H](CCC(N)=O)C(=O)N[C@@H](CCCNC(=N)N)C(=O)N[C@@H](CCCNC(=N)N)C(=O)N[C@@H](CCCNC(=N)N)C(=O)NCC(=O)NCC(=O)N[C@H](C(=O)N[C@@H](CC(N)=O)C(=O)N[C@@H](CCC(N)=O)C(=O)N[C@@H](CO)C(=O)N[C@@H](C)C(=O)N[C@@H](CO)C(=O)N[C@@H](CCC(N)=O)C(=O)N[C@@H](CO)C(=O)N[C@@H](CO)C(=O)N[C@@H](CC(N)=O)C(N)=O)C(C)C
- Protein levels of RTA, ORF45, K8α, and ORF57 (in words): diminished
